The values below come from PMC5549992 (PLoS Pathogens, 2017).

Test [1] has as its target T1, Histidine (His6)-tagged Rv2623 expressed in M. smegmatis mc2155 (M. tuberculosis, UniProt P9WFD7 1-297).
T1 construct: not shown: His6, N-terminal, kept
T1 sequence: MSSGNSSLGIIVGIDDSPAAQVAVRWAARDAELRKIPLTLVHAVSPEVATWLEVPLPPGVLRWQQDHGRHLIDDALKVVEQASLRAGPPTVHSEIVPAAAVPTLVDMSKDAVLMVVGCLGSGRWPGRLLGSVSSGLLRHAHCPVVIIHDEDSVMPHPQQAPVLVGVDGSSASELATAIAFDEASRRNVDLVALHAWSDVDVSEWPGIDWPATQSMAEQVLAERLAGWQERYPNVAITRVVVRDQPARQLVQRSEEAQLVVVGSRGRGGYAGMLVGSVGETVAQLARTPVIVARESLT
Put plainly: pull-down. Conditions: both partners purified.

Test [2] concerns the target T2, His6-tagged Rv2623WT derived from the E. coli-based pQE80L-Rv2623 expression construct (M. tuberculosis, UniProt P9WFD7 1-297).
T2 construct: not shown: His6, N-terminal, kept
T2 sequence: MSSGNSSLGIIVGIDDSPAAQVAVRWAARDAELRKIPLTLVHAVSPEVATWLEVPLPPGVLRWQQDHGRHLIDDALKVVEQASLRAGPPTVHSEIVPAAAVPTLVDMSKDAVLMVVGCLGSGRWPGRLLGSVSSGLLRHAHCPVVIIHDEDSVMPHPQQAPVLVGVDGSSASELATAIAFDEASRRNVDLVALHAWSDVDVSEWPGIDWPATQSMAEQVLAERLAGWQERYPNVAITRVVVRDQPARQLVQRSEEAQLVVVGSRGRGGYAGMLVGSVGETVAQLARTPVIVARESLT
Briefly: pull-down. Conditions: both partners purified.

B1: FLAG-tagged FHA I (first 100 amino acids of Rv1747) expressed in M. smegmatis mc2155 (domain or fragment)
chain: not shown
notes: not shown: FLAG, N-terminal, kept
B1: the binding result in test [1] was “binds”.

B2: cMyc-tagged FHA I (first 120 amino acids of Rv1747) expressed via LIC vector pMCSG7 (domain or fragment)
chain: not shown
For the molecule B2, the binding result in test [2] is listed as “binds”.
